These results are taken from patent US20230399384A1 (University of Texas, published 2023).

For test [1], the target named is SARS-CoV-2 RBD protein (Sino Biological, Cat: 40592-V08B) (SARS-CoV-2).
Test [2] deals with SARS-CoV-2 S protein on live SARS-CoV-2-mNG reporter virus (SARS-CoV-2). Nature of the test: cell-based or functional assay.
Test [3] addresses sCoV-RBD (Fc-tagged RBD of SARS-CoV S protein) (SARS-CoV; human). Description: phage ELISA, scFv on phage. For orientation: ELISA stands for enzyme-linked immunosorbent assay.
The target in test [4] is T1, sCoV2-RBD (Fc-tagged RBD of SARS-CoV-2 S protein) (SARS-CoV-2; human). Description: ELISA titration on coated sCoV2-RBD.
Another test addresses S protein of SARS-CoV (SARS-CoV). Description: ELISA, purified IgG1 on coated S protein.
The target in test [5] is T1, sCoV2-RBD (Fc-tagged RBD of SARS-CoV-2 …). Nature of the test: BLI (Octet) blocking of ACE2 binding to captured sCoV2-RBD. A general note: Biolayer interferometry detects binding as a change in optical thickness at a sensor tip.

A word on the Kd: it is the free concentration of one partner at which half of the binding sites on the other are occupied at equilibrium, for simple one-to-one binding. Lower therefore signals tighter binding. In general, EC50 refers to the concentration needed to bring the measured effect to its halfway point. Read a low EC50 as a more potent agent. The term IC50 denotes the concentration at which inhibition is half-maximal. A higher IC50 goes with lower potency.

B1: CoV2-25 (antibody, V domains shown)
VH: QVQLVESGAEVKKPGASVKVSCKASGYTFTGYYMHWVRQAPGQGLEWMGRINPNSGGTNYAQKFQGRVTMTRDTSISTAYMELSRLRSDDTAVYYCARGYFDYWGQGTLVTVSS
VL: QAVVTQPPSTSGTPGQRVTIS[sequence of about 80 residues omitted]FGGGTKVTVL
On to B1, for which the Kd in test [1] came to 3.78 nM. Moreover, the “NC50 (neutralisation of reporter SARS-CoV-2, Vero E6 cells)” value in test [2] came out at 1.24 µg/mL. For the same molecule, the binding result in test [3] is reported as “no binding”; with S protein of SARS-CoV it was “no binding (tested: one concentration, not printed)”. In test [4], this molecule came in with an EC50 of 0.84 nM. For the same molecule, in test [5], the IC50 was determined as 3.82 µg/mL.
